A mixed list of measured activities; the numbers were collected in NIAID ChemDB.

Shared fields: whole-cell or culture tests

MIC50, MIC90 and the like: level of inhibition, or share of isolates inhibited. Fold resistance has wild type as its base. Zones are inhibition diameters on agar. Neighbouring rows are from separate reports. An empty or dashed field is not shown. ECn is the concentration giving n% inhibition of infection, replication or growth. Percent inhibition refers to the dose given; in toxicity tests it is the harm to the cells.

compound,species,strain,mutations,cells,read by,measure,tested at,result
CC(C)(CO)C(=O)SCCOP(=O)(NCc1ccccc1)OC[C@H]1O[C@@H](n2cnc3c(=O)[nH]c(N)nc32)[C@](C)(O)[C@@H]1O,Hepatitis C virus,GT1b,R318W,Replicon cells,replicon,fold resistance,,0.75
COc1c(N2CCNC(C)C2)c(F)cc2c(=O)c(C(=O)O)cn(C3CC3)c12,Staphylococcus aureus,24 strains (ofloxacin-susceptible),,,,MIC50,,0.12 µg/mL
CO[C@H]1/C=C/O[C@@]2(C)Oc3c(C)c(O)c4c(O)c(c(/C=N/N5CCN(C)CC5)c(O)c4c3C2=O)NC(=O)/C(C)=C\C=C\[C@H](C)[C@H](O)[C@@H](C)[C@@H](O)[C@@H](C)[C@H](OC(C)=O)[C@@H]1C,Staphylococcus aureus,16 strains (methicillin- quinolone-resistant),,,,MIC50,,0.0078 µg/mL
CO[C@H]1/C=C/O[C@@]2(C)Oc3c(C)c(O)c4c(O)c(c5c(c4c3C2=O)NC2(CCN(CC(C)C)CC2)N=5)=NC(=O)/C(C)=C\C=C\[C@H](C)[C@H](O)[C@@H](C)[C@@H](O)[C@@H](C)[C@H](OC(C)=O)[C@@H]1C,Encephalitozoon cuniculi,,,MRC-5 fibroblasts,cytopathic effect,inhibition,10 µg/mL,12%
C[C@@H]1CN(c2c(F)c(N)c3c(=O)c(C(=O)O)cn(C4CC4)c3c2F)C[C@H](C)N1,Streptococcus pneumoniae,Clinical isolate CP1000,,,,MIC,,0.25 µg/mL
CN[C@@H]1[C@H](O[C@H]2[C@H](O[C@H]3[C@H](O)[C@@H](O)[C@H](N=C(N)N)[C@@H](O)[C@@H]3N=C(N)N)O[C@@H](C)[C@]2(O)C=O)O[C@@H](CO)[C@H](O)[C@H]1O,Pseudomonas aeruginosa,,,,agar diffusion,zone,250 µg/disc,30 mm
CCCCNC(=O)n1c(NC(=O)OC)nc2ccccc21,Cryptococcus neoformans,ATCC 14116,,,,EC50,,<3.5 µg/mL
C[C@H]1NCc2cc(-c3ccc4c(=O)c(C(=O)O)cn(C5CC5)c4c3OC(F)F)ccc21,Staphylococcus aureus,24 strains (ofloxacin-susceptible),,,,MIC50,,0.03 µg/mL
Nc1ccn(C[C@@H](CO)OCP(=O)(O)O)c(=O)n1,Varicella zoster virus,PCV-resistant/A,,HEL,plaque count,EC50,,0.064 µg/mL
CCC(C)n1ncn(-c2ccc(N3CCN(c4ccc(OC[C@H]5CO[C@](Cn6cncn6)(c6ccc(Cl)cc6Cl)O5)cc4)CC3)cc2)c1=O,Aspergillus fumigatus,60 isolates,,,,MIC50,,0.25 µg/mL
CCCOc1ccc2nc(NC(=O)OC)[nH]c2c1,Cryptococcus neoformans,IU8698,,,,EC50,,<2.1 µg/mL
C[C@@H]1CN(c2c(F)c(N)c3c(=O)c(C(=O)O)cn(C4CC4)c3c2F)C[C@H](C)N1,Encephalitozoon cuniculi,,,MRC-5 fibroblasts,cytopathic effect,inhibition,50 µg/mL,100%
CN1CCCC(CC2c3ccccc3Sc3ccccc32)C1,Herpes simplex virus 1,KOS,,HeLa,cytopathic effect,EC50,,>200 µg/mL
Nc1ncnc2c1ncn2Cc1c(F)cccc1Cl,Encephalitozoon cuniculi,,,MRC-5 fibroblasts,cytopathic effect,inhibition,5 µg/mL,0%
CN(C)c1ccc(O)c2c1C[C@H]1C[C@H]3[C@H](N(C)C)C(=O)C(C(N)=O)=C(O)[C@@]3(O)C(=O)C1=C2O,Staphylococcus aureus,25 strains (ofloxacin-resistant),,,,MIC90,,32 µg/mL
CCCN1CCN(c2cc(=O)c3nc4c(oc3c2)c2c(=O)c3c(O)c(C)c5c(c34)=C(O)[C@@](C)(O/C=C/[C@H](OC)[C@@H](C)[C@@H](OC(C)=O)[C@H](C)[C@H](O)[C@H](C)[C@@H](O)[C@@H](C)/C=C/C=C(/C)C(=O)N2)O5)CC1,Staphylococcus aureus,209P,,,,MIC,,0.002 µg/mL
C[C@H](Cc1ccc(O)c(O)c1)[C@@H](C)Cc1ccc(O)c(O)c1,Candida glabrata,CCC 115-2000,,,broth dilution,MIC100,,250 µg/mL
C[C@@H](c1nc(-c2ccc(C#N)cc2)cs1)[C@](O)(Cn1cnnc1)c1ccc(F)cc1F,Candida albicans,Isogenic isolate 6 MDR1 (25X),,,,MIC,,0.015 µg/mL
COc1cc(Cc2cnc(N)nc2N)cc(OC)c1Br,Mycobacterium ulcerans,Isolate 5143,,,,MBC,,8 µg/mL
C[C@@H]1CN(c2c(F)c(N)c3c(=O)c(C(=O)O)cn(C4CC4)c3c2F)C[C@H](C)N1,Staphylococcus aureus,25 strains (ofloxacin-resistant),,,,MIC90,,32 µg/mL
CCCCC/C=C\C/C=C\C/C=C\C/C=C\CCCC(=O)O[C@H]1CC[C@@]2(C)C(=CC[C@H]3[C@@H]4CC[C@H]([C@H](C)CCCC(C)C)[C@@]4(C)CC[C@@H]32)C1,Herpes simplex virus 1,KOS,,HeLa,cytopathic effect,EC50,,>200 µg/mL
C[C@H]1COc2c(N3CCN(C)CC3)c(F)cc3c(=O)c(C(=O)O)cn1c23,Staphylococcus aureus,25 strains (methicillin-susceptible),,,,MIC50,,0.25 µg/mL
CO[C@H]1[C@@H](OC(=O)/C=C/C=C/C=C/C=C/C(=O)O)CC[C@@]2(CO2)[C@@H]1[C@@]1(C)O[C@@H]1CC=C(C)C,Encephalitozoon cuniculi,,,MRC-5 fibroblasts,cytopathic effect,inhibition,0.0001 µg/mL,10%
c1ccc2[nH]cnc2c1,Cryptococcus neoformans,IU4,,,,EC50,,<4 µg/mL
CC1(C)S[C@@H]2[C@H](NC(=O)[C@H](N)c3ccccc3)C(=O)N2[C@H]1C(=O)O,Haemophilus influenzae,38 strains (ampicillin-susceptible),,,,MIC50,,0.25 µg/mL
O=C(O)P(=O)(O)O,Varicella zoster virus,PCV-resistant/B,,HEL,plaque count,EC50,,38.6 µg/mL
CCOc1cc(Cc2cnc(N)nc2N)cc(OCC)c1-n1cccc1,Mycobacterium ulcerans,Isolate 5143,,,,MIC,,0.5 µg/mL
CC1COc2c(N3CCN(C)CC3)c(F)cc3c(=O)c(C(=O)O)cn1c23,Staphylococcus aureus,10 strains (oxacillin-resistant),,,,MIC90,,>16 µg/mL
Cc1c(N2C[C@@H](F)[C@@H](C3(N)CC3)C2)c(F)c(N)c2c(=O)c(C(=O)O)cn([C@@H]3C[C@@H]3F)c12,Staphylococcus aureus,24 strains (ofloxacin-susceptible),,,,MIC50,,≤0.004 µg/mL
C[C@@H]1O[C@@H](O[C@H]2C[C@@H](O)[C@]3(CO)[C@H]4[C@H](O)C[C@]5(C)[C@@H](C6=CC(=O)OC6)CC[C@]5(O)[C@@H]4CC[C@]3(O)C2)[C@H](O)[C@H](O)[C@H]1O,Herpes simplex virus 1,KOS,,HeLa,cytopathic effect,EC50,,>200 µg/mL
CC[C@H]1OC(=O)[C@H](C)[C@@H](O[C@H]2C[C@@](C)(OC)[C@@H](O)[C@H](C)O2)[C@H](C)[C@@H](O[C@@H]2O[C@H](C)C[C@H](N(C)C)[C@H]2O)[C@](C)(O)C[C@@H](C)CN(C)[C@H](C)[C@@H](O)[C@]1(C)O,Encephalitozoon cuniculi,,,MRC-5 fibroblasts,cytopathic effect,EC50,,200 µg/mL
CC[C@H]1OC(=O)[C@H](C)[C@@H](O[C@H]2C[C@@](C)(OC)[C@@H](O)[C@H](C)O2)[C@H](C)[C@@H](O[C@@H]2O[C@H](C)C[C@H](N(C)C)[C@H]2O)[C@@H](C)C[C@@H](C)C(=O)[C@H](C)[C@@H](O)[C@H]1C,Herpes simplex virus 1,KOS,,HeLa,cytopathic effect,EC50,,>200 µg/mL
Nc1nccc2c1ncn2[C@@H]1C[C@H](CO)[C@@H](O)[C@H]1O,Vesicular stomatitis virus,,,BHK-21,cytopathic effect,EC50,,>400 µg/mL
Nc1nc2c(ncn2COC(CO)CO)c(=O)[nH]1,Varicella zoster virus,BVaraU-resistant,,HEL,plaque count,EC50,,1.7 µg/mL
N[C@@H]1CN(c2c(F)cc3c(=O)c(C(=O)O)cn([C@@H]4C[C@@H]4F)c3c2Cl)CC12CC2,Staphylococcus aureus,24 strains (ofloxacin-susceptible),,,,MIC50,,0.03 µg/mL
O=c1[nH]c(=O)n([C@@H]2O[C@H](CO)[C@@H](O)[C@@H]2O)cc1/C=C/Br,Varicella zoster virus,PMEDAP-resistant,,HEL,plaque count,EC50,,0.000066 µg/mL
CCC(C)n1ncn(-c2ccc(N3CCN(c4ccc(OC[C@H]5CO[C@](Cn6cncn6)(c6ccc(Cl)cc6Cl)O5)cc4)CC3)cc2)c1=O,Encephalitozoon cuniculi,,,MRC-5 fibroblasts,cytopathic effect,inhibition,1 µg/mL,31%
C/C=C/C=C/C1OC(O)(C(CC)C(=O)NC/C=C/C=C(\C)C(OC)C(C)C2OC(/C=C/C=C/C=C(\C)C(=O)c3c(O)ccn(C)c3=O)C(O)C2O)C(O)C(OC2OC(C)C(OC3OC(C)C(OC)C(O)C3OC)C(OC)C2O)C1(C)C,Herpes simplex virus 1,KOS,,HeLa,cytopathic effect,EC50,,>200 µg/mL
C=C(C)CN(CC)c1c([N+](=O)[O-])cc(C(F)(F)F)cc1[N+](=O)[O-],Toxoplasma gondii,Ethalfluralin-resistant,,,,EC50,,3 µM
CCN(CC)CCCC(C)Nc1ccnc2cc(Cl)ccc12,Encephalitozoon cuniculi,,,MRC-5 fibroblasts,cytopathic effect,inhibition,25 µg/mL,34%

The last 2 rows once more:

compound | species | strain | mutations | cells | read by | measure | tested at | result
C=C(C)CN(CC)c1c([N+](=O)[O-])cc(C(F)(F)F)cc1[N+](=O)[O-] | Toxoplasma gondii | Ethalfluralin-resistant |  |  |  | EC50 |  | 3 µM
CCN(CC)CCCC(C)Nc1ccnc2cc(Cl)ccc12 | Encephalitozoon cuniculi |  |  | MRC-5 fibroblasts | cytopathic effect | inhibition | 25 µg/mL | 34%